A mixed list of measured activities; the numbers were collected in NIAID ChemDB.

Inhibition is in % at the dose shown (toxicity tests: loss of growth or viability).

structure	strain	kind	cell line	protein	organism	endpoint	tested at	value
Nc1ccn([C@@H]2C=C(CO)[C@@H](O)[C@H]2O)c(=O)n1	7124	culture	MK2	-	Variola virus	EC50	-	0.08 µg/mL
CCCCCCCCCCCCC/C=C/[C@@H](O)[C@H](CO[C@@H]1O[C@H](CO)[C@H](O)[C@H](OS(=O)(=O)O)[C@H]1O)NC(=O)CCCCCCCCCCCCCCCCCCCCCCC	H11N9 A/mallard/Alberta/24/92	target	-	Sialidase	Influenza A virus	inhibition	200 µM	58.1%
O=C(O)c1ccc(CN2CCC(NC(=O)c3ccc4c(c3)nc(-c3ccoc3)n4C3CCCCC3)C2)cc1	-	target	-	RNA-dependent RNA polymerase	Poliovirus	IC50	-	>25 µM
CCCCCCCCCCCCCCCCCC(=O)OC[C@@H](COP(=O)(O)OCCNCCO[C@@]1(C(=O)O)O[C@@H]([C@H](O)[C@H](O)CO)[C@H](NC(C)=O)[C@@H](O)[C@H]1F)OC(=O)CCCCCCCCCCCCCCCCC	H11N3 A/DUCK/44/3/76	target	-	Sialidase	Influenza A virus	IC50	-	250 µM
Clc1ccc(C2COc3ccccc3C2)cc1	IB (TYPE 2)	culture	HEP-2	-	Poliovirus	inhibition	10 µM	0%
CN(C)c1cccc2c(S(=O)(=O)NCCNC(=O)COc3ccc(-c4nc5cc(C(=O)N[C@H](Cc6c[nH]c7ccc(OCC(=O)O)cc67)C(=O)O)ccc5n4C4CCCCC4)cc3)cccc12	-	target	-	RNA-dependent RNA polymerase	Poliovirus	IC50	-	>25 µM
Brc1ccc(C2=Cc3ccccc3OC2)cc1	IA (TYPE 2)	culture	HEP-2	-	Poliovirus	EC50	-	>10 µM
NC(=O)c1csc([C@@H]2O[C@H](CO)[C@@H](O)[C@H]2O)n1	-	culture	LLC-MK2	-	Monkeypox virus	EC50	-	5.2 µg/mL
Clc1ccc(C2COc3ccc(Cl)cc3C2)cc1	II (TYPE 2)	culture	HEP-2	-	Poliovirus	EC50	-	>10 µM
Cn1cc(NC(=O)c2cc(NC(=O)c3cc(NC(=O)c4cc(NC(=O)c5cc(NC=O)cn5C)cn4C)cn3C)cn2C)cc1C(=O)NCCC(=N)N	Noguchi	culture	BSC-1	-	Vaccinia virus	inhibition	100 µg/mL	57%
Clc1ccc(C2CCc3ccccc3O2)c(Cl)c1	IB (TYPE 2)	culture	HEP-2	-	Poliovirus	inhibition	10 µM	10%
CCCCCCCCCCCCCCCCCC(=O)OC[C@@H](COP(=O)(O)OCCNCCO[C@@]1(C(=O)O)O[C@@H]([C@H](O)[C@H](O)CO)[C@H](NC(C)=O)[C@@H](O)[C@H]1F)OC(=O)CCCCCCCCCCCCCCCCC	H1N1 A/swine/Hokkaido/2/81	target	-	Sialidase	Influenza A virus	IC50	-	62.5 µM
O=C(N[C@@H](Cc1c[nH]c2ccc(O)cc12)C(=O)O)c1ccc2c(c1)nc(-c1ccoc1)n2C1CC2CCC1C2	-	target	-	RNA-dependent RNA polymerase	Poliovirus	IC50	-	>25 µM
C1=C(c2ccccc2)COc2ccccc21	SABIN (TYPE 2)	culture	HEP-2	-	Poliovirus	inhibition	10 µM	100%
O=C(N[C@@H](Cc1c[nH]c2ccc(O)cc12)c1cscn1)c1ccc2c(c1)nc(-c1ccccc1)n2C1CCCCC1	-	target	-	RNA-dependent RNA polymerase	Poliovirus	IC50	-	>25 µM
Nc1nc(=O)n([C@@H]2C=C(CO)[C@@H](O)[C@H]2O)cc1F	7124	culture	VERO	-	Variola virus	EC50	-	2.63 µg/mL
O=C(O)CNC(=O)N1CCC(CNC(=O)c2ccc3c(c2)nc(-c2ccoc2)n3C2CCCCC2)CC1	-	target	-	RNA-dependent RNA polymerase	Poliovirus	IC50	-	>25 µM
Nc1ccn(C[C@H]2COP(=O)(O)CO2)c(=O)n1	Isolate Yamada	culture	VERO	-	Variola virus	EC50	-	31 µg/mL
Nc1ccc(-c2nc3cc(C(=O)N[C@H](C(=O)O)c4c[nH]c5ccc(O)cc45)ccc3n2C2CCCCC2)cn1	-	target	-	RNA-dependent RNA polymerase	Poliovirus	IC50	-	>25 µM
Cn1cc(NC(=O)c2cc(NC(=O)CN=C(N)N)cn2C)c(C(=O)NCCC(=N)N)c1	Noguchi	culture	BSC-1	-	Vaccinia virus	inhibition	10 µg/mL	0%
Nc1ccn(C[C@@H](CO)OCP(=O)(O)O)c(=O)n1	Isolate Somalia	culture	VERO	-	Variola virus	EC50	-	7 µg/mL
O=C(N[C@H](C(=O)O)c1c[nH]c2ccc(O)cc12)c1ccc2c(c1)nc(-c1cn[nH]c1)n2C1CCCCC1	-	target	-	RNA-dependent RNA polymerase	Poliovirus	IC50	-	>25 µM

The last 2 rows once more:

structure	strain	kind	cell line	protein	organism	endpoint	tested at	value
Nc1ccn(C[C@@H](CO)OCP(=O)(O)O)c(=O)n1	Isolate Somalia	culture	VERO	-	Variola virus	EC50	-	7 µg/mL
O=C(N[C@H](C(=O)O)c1c[nH]c2ccc(O)cc12)c1ccc2c(c1)nc(-c1cn[nH]c1)n2C1CCCCC1	-	target	-	RNA-dependent RNA polymerase	Poliovirus	IC50	-	>25 µM

ECn: concentration that inhibits the pathogen or its effect by n%. An empty or dashed field is not shown. ICn: concentration for n% inhibition. Neighbouring rows are from separate reports.